Compound potency records, mixed from different reports. Data source: NIAID ChemDB in PubChem.

ICn: concentration for n% inhibition. ECn: concentration that inhibits the pathogen or its effect by n%. Percent inhibition refers to the dose given; in toxicity tests it is the harm to the cells. Blank or dashed fields: not listed here. Neighbouring rows are from separate reports.

SMILES	kind	species	strain	cell line	target	measure	dose	value
CCCCCCCCCCCCCCCCCC(=O)OC[C@@H](COP(=O)(O)OCCNCCO[C@@]1(C(=O)O)O[C@@H]([C@H](O)[C@H](O)CO)[C@H](NC(C)=O)[C@@H](O)[C@H]1F)OC(=O)CCCCCCCCCCCCCCCCC	target	Influenza A virus	H1N1 A/swine/Hokkaido/2/81		Sialidase	IC50		62.5 µM
CCCN(CCC)C(=O)C(NC(C)=O)[C@H]1C[C@@H](C(=O)O)C[C@@H]1N=C(N)N	target	Influenza A virus (H6N2)			Neuraminidase	IC50		8.6 µM
CCCCCCCCCCCCCCCCCC(=O)OC[C@@H](COP(=O)(O)OCCNCCO[C@@]1(C(=O)O)O[C@@H]([C@H](O)[C@H](O)CO)[C@H](NC(C)=O)[C@@H](O)[C@H]1F)OC(=O)CCCCCCCCCCCCCCCCC	target	Influenza A virus	H9N2 A/DUCK/86/1/76		Sialidase	IC50		125 µM
CCCCCCCCCCCCC/C=C/[C@@H](O)[C@H](CO[C@@H]1O[C@H](CO)[C@H](O)[C@H](OS(=O)(=O)O)[C@H]1O)NC(=O)CCCCCCCCCCCCCCCCCCCCCCC	target	Influenza A virus	H1N4 A/Teal/Alberta/69/87		Sialidase	inhibition	200 µM	70.4%
Nc1ccn(C[C@@H](CO)OCP(=O)(O)O)c(=O)n1	culture	Variola virus	Isolate Bangladesh	VERO		EC50		17 µg/mL
O=C(N[C@@H](Cc1ccc(O)cc1)c1noc(C(F)(F)F)n1)c1ccc2c(c1)nc(-c1ccoc1)n2C1CCCCC1	target	Poliovirus			RNA-dependent RNA polymerase	IC50		>25 µM
NC(=O)c1c[se]c([C@@H]2O[C@H](CO)[C@@H](O)[C@H]2O)n1	culture	Venezuelan equine encephalitis virus	Trinidad donkey	VERO 76		EC50		0.5 µg/mL
CN(C)CCCNC(=O)COc1ccc(-c2nc3cc(C(=O)NCc4ccc(S(C)(=O)=O)cc4)ccc3n2C2CCCCC2)cc1	target	Poliovirus			RNA-dependent RNA polymerase	IC50		>25 µM
COc1c(C)c2c(c(O)c1C/C=C(\C)CCC(=O)O)C(=O)OC2	culture	Cowpox virus		3T3		EC50		1.3 µM
O=C(O)c1ccc2c(c1)nc(-c1cccs1)n2C1CCCCC1	target	Poliovirus			RNA-dependent RNA polymerase	IC50		>25 µM
NC(=O)c1csc([C@@H]2O[C@H](CO)[C@@H](O)[C@H]2O)n1	culture	Yellow fever virus	Asibi	VERO		EC50		9.2 µg/mL
C=C[C@H]1C(C(=O)O)[C@@H]1NC(=O)c1ccc2c(c1)nc(-c1ccccn1)n2C1CCCCC1	target	Poliovirus			RNA-dependent RNA polymerase	IC50		>25 µM
Nc1ccn(C[C@@H](CO)OCP(=O)(O)O)c(=O)n1	culture	Monkeypox virus		VERO 76		EC50		96 µM
CCCCCCN(C)C(=O)C(NC(C)=O)[C@H]1CC(C(=O)O)C[C@@H]1N=C(N)N	target	Influenza A virus (H6N2)			Neuraminidase	IC50		12.4 µM
Nc1ccn(C[C@H]2COP(=O)(O)CO2)c(=O)n1	culture	Variola virus	Isolate V70-46	VERO		EC50		13 µg/mL
COc1ccc(CCNC(=O)c2ccc3c(c2)nc(-c2ccccn2)n3C2CCCCC2)cc1OC	target	Poliovirus			RNA-dependent RNA polymerase	IC50		>25 µM
CC(C)(C)C(=O)OCOP(=O)(COCCn1cnc2c(N)ncnc21)OCOC(=O)C(C)(C)C	culture	Variola virus	Isolate Brazil Garcia	VERO		EC50		90 µg/mL
O=C(NC1CCC(NCc2ccccc2C(=O)O)CC1)c1ccc2c(c1)nc(-c1ccoc1)n2C1CCCCC1	target	Poliovirus			RNA-dependent RNA polymerase	IC50		>25 µM
CCC(CC)NC(=O)C(NC(C)=O)[C@H]1C[C@@H](C(=O)O)C[C@@H]1N=C(N)N	target	Influenza A virus (H6N2)			Neuraminidase	IC50		3 µM

For reference, 2 entries again:

SMILES,kind,species,strain,cell line,target,measure,dose,value
O=C(O)c1ccc2c(c1)nc(-c1cccs1)n2C1CCCCC1,target,Poliovirus,,,RNA-dependent RNA polymerase,IC50,,>25 µM
COc1c(C)c2c(c(O)c1C/C=C(\C)CCC(=O)O)C(=O)OC2,culture,Cowpox virus,,3T3,,EC50,,1.3 µM